Assay results from patent US20040018487A1 (published 2004).

Target: HPV 16 E6 C-terminal PL peptide (TQL), biotinylated (HPV 16)
Assay: G assay, HPV16 E6 PL peptide titrated against a constant amount of GST-PDZ

B1: GST-PSD95 PDZ domain 2 (other)
chain: MSPILGYWKIKGLVQPTRLLLEYLEEKYEEHLYERDEGDKWRNKKFELGLEFPNLPYYIDGDVKLTQSMAIIRYIADKHNMLGGCPKERAEISMLEGAVLDIRYGVSRIAYSKDFETLKVDFLSKLPEMLKMFEDRLCHKTYLNGDHVTHPDFMLYDALDVVLYMDPMCLDAFPKLVCFKKRIEAIPQIDKYLKSSKYIAWPLQGWQATFGGGDHPPKSDLIEGREIKLIKGPKGLGFSIAGGVGNQHIPGDNSIYVTKIIEGGAAHKDGRLQIGDKILAVNSVGLEDVMHEDAVAALKNTYDVVYLKVAKP
notes: also called PSD 95 (2); PSD 95 (PDZ #2)
  EC50: 6.8 µM
